Compound potency records, mixed from different reports. Data source: NIAID ChemDB in PubChem.

Shared fields: tests on isolated targets; species: Hepatitis C virus; target: HCV NS3 protease

ICn is the concentration giving n% inhibition.

SMILES | measure | value
CCC[C@H](NC(=O)[C@@H]1CCCN1C(=O)[C@@H](NC(=O)[C@@H](NC(=O)[C@@H](CC(=O)O)NC(=O)[C@H](CC(=O)O)NC(C)=O)[C@@H](C)CC)C(C)C)C(N)=O | IC50 | 1.1 µM
CCC[C@@H](NC(=O)[C@@H]1C[C@@H](OCc2ccc3ccccc3c2)CN1C(=O)[C@@H](NC(=O)[C@@H](NC(=O)[C@@H](CCC(=O)O)NC(=O)[C@H](CC(=O)O)NC(C)=O)C1CCCCC1)C(C)C)C(=O)O | Ki | 0.003 µM
CC[C@H](NC(=O)[C@@H](NC(=O)[C@@H](NC(=O)[C@H](CC(C)C)NC(=O)[C@@H](CCC(=O)O)NC(=O)[C@H](CC(=O)O)NC(C)=O)[C@@H](C)CC)C1CCCCC1)C(=O)O | IC50 | 1 µM
CC(=O)N[C@@H](CC(=O)O)C(=O)N[C@@H](CCC(=O)O)C(=O)N[C@H](C(=O)N[C@@H](CCC(=O)O)C(=O)N[C@@H](CC1CCCCC1)C(=O)N[C@@H](CC(F)F)C(=O)NCCc1ccccc1)C(c1ccccc1)c1ccccc1 | IC50 | 0.003 µM
CC(=O)N[C@H](C(=O)N[C@H](C(=O)N1CCC[C@H]1C(=O)NC1(C(=O)O)CC1)C(C)C)C1CCCCC1 | IC50 | >1000 µM
CC(=O)N[C@@H](C(=O)O)C(=O)N[C@@H](CCC(=O)O)C(=O)N[C@H](C(=O)N[C@@H](CCC(=O)O)C(=O)N[C@@H](CC1CCCCC1)C(=O)N[C@@H](CC(F)F)C(=O)O)C(c1ccccc1)c1ccccc1 | Ki | 0.021 µM
C[C@@H](O)[C@H](NC(=O)[C@H](CO)NC(=O)[C@H](CS)NC(=O)[C@@H](N)CC(=O)O)C(=O)N1CCC[C@H]1C(=O)N[C@@H](CS)C(=O)O | Ki | 180 µM
CCC[C@@H](NC(=O)[C@@H]1CCCN1C(=O)[C@@H](NC(=O)[C@@H](NC(=O)[C@H](CC(=O)O)NC(=O)[C@@H](N)CC(=O)O)[C@@H](C)CC)C(C)C)C(=O)C(F)(F)C(F)(F)F | IC50 | 12 µM
CC[C@H](NC(=O)[C@@H](NC(=O)[C@@H](NC(=O)[C@H](CC(=O)O)NC(=O)[C@@H](N)CCC(=O)O)C(C)C)C(C)C)C(=O)N[C@@H](CS)C(=O)O | Ki | 1.4 µM
C/C=C/C(O)[C@H](CC)NC(=O)[C@@H](NC(=O)[C@@H](NC(=O)[C@H](CC(C)C)NC(=O)[C@@H](CCC(=O)O)NC(=O)[C@H](CC(=O)O)NC(C)=O)[C@@H](C)CC)C1CCCCC1 | IC50 | >10 µM
CC(=O)N[C@@H](C(=O)O)C(=O)N[C@@H](CCC(=O)O)C(=O)N[C@H](C(=O)N[C@@H](CCC(=O)O)C(=O)N[C@@H](CC1CCCCC1)C(=O)N[C@H](C=O)CC(F)F)C(c1ccccc1)c1ccccc1 | Ki | 0.0005 µM
CC[C@H](NC(=O)[C@@H](NC(=O)[C@@H](NC(=O)[C@H](CC(C)C)NC(=O)[C@@H](CCC(=O)O)NC(=O)[C@H](CC(=O)O)NC(C)=O)[C@@H](C)CC)C1CCCCC1)C(=O)CCc1ccc(OC)cc1 | IC50 | 1–10 µM
CCCC[C@H](NC(=O)[C@@H]1Cc2ccccc2CN1C(=O)[C@H](CS)NC(=O)[C@H](CC(C)C)NC(=O)[C@@H](N)C(C)C)C(=O)N[C@@H](CO)C(=O)N[C@@H](Cc1ccc(O)cc1)C(=O)O | Ki | >1000 µM
C=CC1CC1(NC(=O)[C@@H]1C[C@@H](Oc2cc(-c3ccccc3)nc3cc(OC)ccc23)CN1C(=O)[C@@H](NC(=O)OC(C)(C)C)C(C)(C)C)C(=O)NS(=O)(=O)c1ccc(NC(C)=O)cc1 | IC50 | 0.017 µM
CC[C@H](NC(=O)[C@@H](NC(=O)[C@@H](NC(=O)[C@H](CC(C)C)NC(=O)[C@@H](CCC(=O)O)NC(=O)[C@H](CC(=O)O)NC(C)=O)[C@@H](C)CC)C1CCCCC1)C(=O)CCc1ccccc1 | IC50 | 1–10 µM
COc1ccc2c(O[C@@H]3C[C@@H]4C(=O)CC5(C(=O)O)CC5/C=C\CCCCC[C@H](NC(=O)OC(C)(C)C)C(=O)N4C3)cc(-c3ccccc3)nc2c1 | IC50 | <0.1 µM
CC[C@H](NC(=O)[C@@H](NC(=O)[C@@H](NC(=O)[C@H](CC(C)C)NC(=O)[C@@H](CCC(=O)O)NC(=O)[C@H](CC(=O)O)NC(C)=O)[C@@H](C)CC)C1CCCCC1)C(=O)CCc1nccs1 | IC50 | <10 µM
CC[C@H](NC(C)=O)C(=O)N[C@@H](CCC(=O)O)C(=O)N[C@H](C(=O)N[C@@H](CCC(=O)O)C(=O)N[C@@H](CC1CCCCC1)C(=O)N[C@H](C=O)CC(F)F)C(c1ccccc1)c1ccccc1 | Ki | 0.0005 µM
CC[C@H](NC(=O)[C@@H](NC(=O)[C@@H](NC(=O)[C@H](CC(C)C)NC(=O)[C@@H](CCC(=O)O)NC(=O)[C@H](CC(=O)O)NC(C)=O)[C@@H](C)CC)C1CCCCC1)C(O)/C=C/c1ccccc1 | IC50 | >10 µM
CC(C)(C)OC(=O)NC1CCCCC/C=C\C2CC2(C(=O)O)NC(=O)C2CCCN2C1=O | IC50 | 400 µM
CC[C@H](NC(=O)[C@@H](NC(=O)[C@@H](NC(=O)[C@H](CC(C)C)NC(=O)[C@@H](CCC(=O)O)NC(=O)[C@H](CC(=O)O)NC(C)=O)[C@@H](C)CC)C1CCCCC1)C(=O)/C=C/CCCC(C)C | IC50 | 1–10 µM
C=C[C@@H]1CC1(NC(=O)[C@@H]1C[C@@H](Oc2ccnc3cc(OC)ccc23)CC1C(=O)[C@H](CCCCC)NC(=O)OC(C)(C)C)C(=O)O | IC50 | 0.4 µM

A second listing of 3 rows from above:

| SMILES | measure | value |
|---|---|---|
| C=CC1CC1(NC(=O)[C@@H]1C[C@@H](Oc2cc(-c3ccccc3)nc3cc(OC)ccc23)CN1C(=O)[C@@H](NC(=O)OC(C)(C)C)C(C)(C)C)C(=O)NS(=O)(=O)c1ccc(NC(C)=O)cc1 | IC50 | 0.017 µM |
| CC[C@H](NC(=O)[C@@H](NC(=O)[C@@H](NC(=O)[C@H](CC(C)C)NC(=O)[C@@H](CCC(=O)O)NC(=O)[C@H](CC(=O)O)NC(C)=O)[C@@H](C)CC)C1CCCCC1)C(=O)CCc1ccccc1 | IC50 | 1–10 µM |
| CC[C@H](NC(=O)[C@@H](NC(=O)[C@@H](NC(=O)[C@H](CC(C)C)NC(=O)[C@@H](CCC(=O)O)NC(=O)[C@H](CC(=O)O)NC(C)=O)[C@@H](C)CC)C1CCCCC1)C(O)/C=C/c1ccccc1 | IC50 | >10 µM |

Two numbers with a dash give a range or band. Neighbouring rows are from separate reports.